Values from PubChem BioAssay AID1259414 (Drosophila RNAi Screening Center, 2018)
In all, the deposit lists about 24,000 reagents; shown is an unselected part of those that have a named target and a result. In the full data, about 1,210 (5%) are marked active. 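Inactive calls also include excluded dsRNAs with several or no targets, genes unexpressed in JW18, and well A1, regardless of score.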 Reagents against one gene are numbered here.

- Screen: 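Fly genes that alter Wolbachia amount inside host cells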 (primary screen)
- Cells: Drosophila JW18 cells infected with Wolbachia
- Reagents: long dsRNA against Drosophila genes, 0.25 µg dsRNA per well of a 384-well plate
- Timing: 5 days
- Treatment: cells persistently infected with Wolbachia before knock-down; no added drug
- Read-out: 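Automated imaging of bacterial rRNA staining divided by host cell count, reported as plate-normalised robust z-score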
- Direction: Wolbachia per cell robust z: higher = more Wolbachia per host cell than the plate typical
- Active means: 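Hit when robust z is 1.5 or more, or -1.5 or less, in at least two of three replicates; excludes dsRNAs with several or no targets, genes not expressed in JW18 and well A1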

Cyp28d2 #1 | Wolbachia per cell robust z, rep 1: 0.0921; Wolbachia per cell robust z, rep 2: -0.283; Wolbachia per cell robust z, rep 3: 1.19; Call: inactive
Cyp28d2 #2 | Wolbachia per cell robust z, rep 1: 0.993; Wolbachia per cell robust z, rep 2: 0.23; Wolbachia per cell robust z, rep 3: 0.657; Call: inactive
CG8301 #1 | Wolbachia per cell robust z, rep 1: -0.837; Wolbachia per cell robust z, rep 2: 0.0412; Wolbachia per cell robust z, rep 3: -0.964; Call: inactive
CG8301 #2 | Wolbachia per cell robust z, rep 1: -0.41; Wolbachia per cell robust z, rep 2: 0.668; Wolbachia per cell robust z, rep 3: 1.72; Call: inactive
CG33293 | Wolbachia per cell robust z, rep 1: 0.702; Wolbachia per cell robust z, rep 2: -1.17; Wolbachia per cell robust z, rep 3: -0.595; Call: inactive
PIG-L #1 | Wolbachia per cell robust z, rep 1: 0.921; Wolbachia per cell robust z, rep 2: 1.66; Wolbachia per cell robust z, rep 3: 0.529; Call: inactive
PIG-L #2 | Wolbachia per cell robust z, rep 1: -2.13; Wolbachia per cell robust z, rep 2: -1.79; Wolbachia per cell robust z, rep 3: 0.0988; Call: active
Past1 | Wolbachia per cell robust z, rep 1: 0.759; Wolbachia per cell robust z, rep 2: 0.512; Wolbachia per cell robust z, rep 3: 0.464; Call: inactive
zen #1 | Wolbachia per cell robust z, rep 1: 1.09; Wolbachia per cell robust z, rep 2: -0.119; Wolbachia per cell robust z, rep 3: -0.000571; Call: inactive
zen #2 | Wolbachia per cell robust z, rep 1: 0.289; Wolbachia per cell robust z, rep 2: -0.608; Wolbachia per cell robust z, rep 3: -1.37; Call: inactive
Pfdn2 | Wolbachia per cell robust z, rep 1: 0.997; Wolbachia per cell robust z, rep 2: 0.257; Wolbachia per cell robust z, rep 3: -0.472; Call: inactive
Cyp28d1 #1 | Wolbachia per cell robust z, rep 1: -0.554; Wolbachia per cell robust z, rep 2: -5.99; Wolbachia per cell robust z, rep 3: 0.927; Call: inactive
Cyp28d1 #2 | Wolbachia per cell robust z, rep 1: 0.938; Wolbachia per cell robust z, rep 2: -0.0728; Wolbachia per cell robust z, rep 3: 1.38; Call: inactive
Cyp28d1 #3 | Wolbachia per cell robust z, rep 1: 0.994; Wolbachia per cell robust z, rep 2: -0.871; Wolbachia per cell robust z, rep 3: 0.278; Call: inactive
trc #1 | Wolbachia per cell robust z, rep 1: -0.105; Wolbachia per cell robust z, rep 2: -0.00744; Wolbachia per cell robust z, rep 3: 0.218; Call: inactive
trc #2 | Wolbachia per cell robust z, rep 1: -1.33; Wolbachia per cell robust z, rep 2: 0.152; Wolbachia per cell robust z, rep 3: -8.11; Call: inactive
CG18234 | Wolbachia per cell robust z, rep 1: -3.34; Wolbachia per cell robust z, rep 2: 0.388; Wolbachia per cell robust z, rep 3: 1.15; Call: inactive
CG32195 | Wolbachia per cell robust z, rep 1: -1.42; Wolbachia per cell robust z, rep 2: -1.14; Wolbachia per cell robust z, rep 3: -1.67; Call: inactive
Grip75 | Wolbachia per cell robust z, rep 1: -0.236; Wolbachia per cell robust z, rep 2: 0.945; Wolbachia per cell robust z, rep 3: -1.7; Call: inactive
CG9259 | Wolbachia per cell robust z, rep 1: 0.751; Wolbachia per cell robust z, rep 2: 0.442; Wolbachia per cell robust z, rep 3: 1.22; Call: inactive
CG34169 | Wolbachia per cell robust z, rep 1: -0.948; Wolbachia per cell robust z, rep 2: 0.223; Wolbachia per cell robust z, rep 3: -0.261; Call: inactive
CG31960 #1 | Wolbachia per cell robust z, rep 1: -2.6; Wolbachia per cell robust z, rep 2: -1.04; Wolbachia per cell robust z, rep 3: 0.261; Call: inactive
CG31960 #2 | Wolbachia per cell robust z, rep 1: -0.302; Wolbachia per cell robust z, rep 2: 0.668; Wolbachia per cell robust z, rep 3: 0.0191; Call: inactive
pip #1 | Wolbachia per cell robust z, rep 1: -0.256; Wolbachia per cell robust z, rep 2: -0.139; Wolbachia per cell robust z, rep 3: -0.66; Call: inactive
pip #2 | Wolbachia per cell robust z, rep 1: -5.57; Wolbachia per cell robust z, rep 2: -8.94; Wolbachia per cell robust z, rep 3: -7.6; Call: inactive
mesh #1 | Wolbachia per cell robust z, rep 1: 0.693; Wolbachia per cell robust z, rep 2: 0.317; Wolbachia per cell robust z, rep 3: 0.557; Call: inactive
mesh #2 | Wolbachia per cell robust z, rep 1: -5.6; Wolbachia per cell robust z, rep 2: -0.43; Wolbachia per cell robust z, rep 3: 0.325; Call: inactive
mesh #3 | Wolbachia per cell robust z, rep 1: 0.254; Wolbachia per cell robust z, rep 2: 0.335; Wolbachia per cell robust z, rep 3: 0.105; Call: inactive
ALiX #1 | Wolbachia per cell robust z, rep 1: 0.812; Wolbachia per cell robust z, rep 2: -2.39; Wolbachia per cell robust z, rep 3: -1.09; Call: inactive
ALiX #2 | Wolbachia per cell robust z, rep 1: -0.0281; Wolbachia per cell robust z, rep 2: -0.303; Wolbachia per cell robust z, rep 3: -0.379; Call: inactive
